Results: patent publication US20210227843A1, “A TEMPERING COMPOSITION FOR TEMPERING GRAIN AND CONTROLLING PATHOGENS IN AND/OR ON SAID GRAIN, AN OXIDIZING COMPOSITION FOR PREPARING SAID TEMPERING COMPOSITION, A USE OF SAID TEMPERING COMPOSITION AND A METHOD OF USE OF SAID TEMPERING COMPOSITION” (AGRI-NEO INC., priority 2017, published 2021)

Test: Flour functionality, sensory and physical characteristics after tempering wheat in an organic flour mill (Example 1)
Conditions: 2 L per ton of wheat (citric acid 2 Kg); 16 h hold

Structure (SMILES): O=C(O)CC(O)(CC(=O)O)C(=O)O [Citric acid]
- EXTENSO 1 3 h 30 after fermen. Extensibility: 193 mm
- EXTENSO 1 3 h 30 after fermen. Ratio: 1.1 EU/mm
- EXTENSO 1 Maximum: 705 mm
- EXTENSO 1 Ratio: 3.1 EU/mm
- EXTENSO 1 Ratio Max: 4.7 EU/mm
- FOSS % Ash: 0.48%
- FOSS % absorption: 59.82%
- GPT AM/BM: 46 s
- GPT BEM: 51 Brabender unit
- GPT PM/AM: 45 s
- MIXOLAB % H2O: 60.1%
- VMI Energy: 15.8 Watt per hour
- VMI Strength: 510 Watt per hour
- VMI Time: 54 s
- size poolish: 14.2 cm

Structure (SMILES): CC(O)C(=O)O (stereo not drawn) [Lactic acid]
- % Hydration: 59.5%
- Bread size-mold: 146 mm
- EXTENSO 1 3 h 30 after fermen. Energy: 64 cm-2
- EXTENSO 1 3 h 30 after fermen. Extensibility: 179 mm
- EXTENSO 1 3 h 30 after fermen. Maximum: 270 mm
- EXTENSO 1 3 h 30 after fermen. Ratio: 1.1 EU/mm
- EXTENSO 1 3 h 30 after fermen. Ratio Max: 1.5 EU/mm
- EXTENSO 1 3 h 30 after fermen. Resistance: 200 EU
- EXTENSO 1 Energy: 148 cm-2
- EXTENSO 1 Extensibility: 169 mm
- EXTENSO 1 Maximum: 712 mm
- EXTENSO 1 Ratio: 2.5 EU/mm
- EXTENSO 1 Ratio Max: 4.2 EU/mm
- EXTENSO 1 Resistance (EU = extensograph petrin outle tunit): 421 EU
- EXTENSO 2 Division after fermen Energy: 124 cm-2
- EXTENSO 2 Division after fermen Extensibility: 136 mm
- EXTENSO 2 Division after fermen Maximum: 734 mm
- EXTENSO 2 Division after fermen Ratio: 3.9 EU/mm
- EXTENSO 2 Division after fermen Ratio Max: 5.4 EU/mm
- EXTENSO 2 Division after fermen Resistance: 532 EU
- FOSS % Ash: 0.51%
- FOSS % Proteins: 11.54%
- FOSS % absorption: 60.85%
- FOSS % gluten: 31.83%
- FOSS % humidity: 12.8%
- GPT % Gluten—Wet: 34.6%
- GPT % Protein content: 11.2%
- GPT AM/BM: 45 s
- GPT BEM: 52 Brabender unit
- GPT PM/AM: 42 s
- IDC: 338 s
- MIXOLAB % H2O: 59.6%
- MIXOLAB Aff 12 min: 0.022 Nm
- PMT: 186 s
- VMI Energy: 14.9 Watt per hour
- VMI Strength: 509 Watt per hour
- VMI Temperature: 22.6 °C
- VMI Time: 43 s
- size poolish: 15.1 cm
